Measured values from several laboratories, pooled; numbers as filed in NIAID ChemDB.

Common to all: whole-cell or culture tests; organism: Candida albicans; measure: MIC

Blank or dashed fields: not listed here. a–b is a range or a potency band. Lines come from different laboratories, so protocols vary.

smiles | strain | result
CC(n1ncn(-c2ccc(-n3cncn3)cc2)c1=O)C(O)(Cn1cncn1)c1ccc(F)cc1F | TA | 0.03 µg/mL
C=CC(C)(C)c1[nH]c2ccccc2c1/C=c1\[nH]c(=O)c2n(c1=O)CCC=2 | SC5314 | >100 µg/mL
Cc1ccc2occ(/C=N/NC(=O)c3cc(O)c(O)c(O)c3)c(=O)c2c1 | PN-10 | 400 µg/mL
CC(C)c1c(C(c2ccccc2)n2ccnc2)cnn1-c1ccccc1 | - | >200 µM
Oc1ccc(C(=S)N2C=NC(c3ccccc3)C2c2ccccc2)c(O)c1 | ATCC 10231 | 50 µg/mL
Cc1nc(Nc2ccc(C3=NN(c4ccc([N+](=O)[O-])cc4[N+](=O)[O-])C(c4ccc([N+](=O)[O-])cc4)C3)cc2)c2c3c(sc2n1)CCCC3 | - | 155 µg/mL
CC(C(Sc1ccccc1C(=O)O)c1ccc([N+](=O)[O-])cc1)[N+](=O)[O-] | ATCC64550 | 15.6 µg/mL
CCCCCCCCCCCC1=NCCN1C(=S)c1ccc(O)cc1O | ATCC 10231 | 50 µg/mL
CCCCCCCCCC(O)CC(=O)CCc1ccc(O)c(OC)c1 | A1-1 | >1000 µg/mL
CCOC1Oc2ccccc2C(=O)/C1=C\Nc1ccc(C(=O)O)c(O)c1 | PN-10 | 50 µg/mL
Cc1ccc(C(Sc2ccccc2C(=O)O)C(C)[N+](=O)[O-])cc1 | ATCC64550 | 31.2 µg/mL
Cn1ncc(C(c2ccccc2)n2ccnc2)c1-c1ccccc1 | - | >200 µM
COc1cc2c(cc1OC)C(CC#N)=NC(C)C2.Cl | 264/624 | 500 µg/mL
Cc1nc2ccccc2n1CC(O)(Cn1cncn1)c1ccc(F)cc1F | - | 6.25–12.5 µg/mL
COc1cc2c(cc1OC)-c1cc3ccc(OC)c(OC)c3c[n+]1CC2 | ATCC28838 | >500 µg/mL
CC1(C)S[C@@H]2[C@H](NC(=O)Cc3ccccc3)C(=O)N2[C@H]1C(=O)O | ATCC 10231 | 6.3 µg/mL
Clc1ccc(CCC(Cn2ccnc2)Sc2c(Cl)cccc2Cl)cc1 | ATCC 14053 | 10 µg/mL
Cc1ccc(Nc2n[nH]c(CCn3cnc([N+](=O)[O-])c3)n2)cc1 | - | 500 µg/mL
CC1C=C(c2ccc(Br)cc2)C(=O)O1 | ATCC 44859 | 31.25 µM
CCNC1Oc2ccc(C)cc2C(=O)/C1=C/Nc1ccc2nc(Sc3ccc([N+](=O)[O-])cc3[N+](=O)[O-])sc2c1 | PN-10 | 250 µg/mL
O=c1occ(/C=C\C2=NCCS2)c2ccccc12 | - | 88 µg/mL
OC(Cn1cncn1)(Cn1c(/C=C/c2ccccc2)nc2ccccc21)c1ccc(F)cc1F | - | 3.125–6.25 µg/mL
NC(=NC1CCCC1)c1ccc(-c2ccc(-c3ccc(C(N)=NC4CCCC4)cc3)o2)cc1 | Isolate 1 (strain 2-76) | 12.5 µg/mL
CCNC1Oc2cc(C)c(C)cc2C(=O)/C1=C/Nc1ccc2[nH]c(=S)sc2c1 | PN-10 | 250 µg/mL
CC1C=C(c2ccc(F)cc2)C(=O)O1 | ATCC 44859 | >125 µM
CC1(C)Cc2ccccc2C(CC#N)=N1.Cl | 264/624 | 250 µg/mL
CCOC1Oc2ccc(Cl)cc2C(=O)/C1=C\Nc1ccc(C(=O)O)c(O)c1 | PN-10 | 50 µg/mL
Cc1nc([N+](=O)[O-])cn1CCc1nc(Nc2ccccc2)n[nH]1 | - | 500 µg/mL
CCOc1ccc(C(Sc2ccccc2C(=O)O)C(C)[N+](=O)[O-])cc1 | ATCC64550 | 15.6 µg/mL
COc1ccc(/C=C\C2=NCCS2)cc1OC | - | >128 µg/mL
Cc1nc(Nc2ccc(C3=NOC(c4ccc([N+](=O)[O-])cc4)C3)cc2)c2c3c(sc2n1)CCCC3 | - | 110 µg/mL
Clc1ccc(COC(Cn2ccnc2)c2ccc(Cl)cc2Cl)c(Cl)c1 | ATCC 10231 | 6.25 µg/mL
Cc1nc(-c2ccc(-n3ccn(C(C)C(O)(Cn4cncn4)c4ccc(F)cc4F)c3=O)cc2)cs1 | TA | 0.004 µg/mL
CN1O[C@@H](c2ccc(Cl)cc2)CC1(Cn1ccnc1)c1ccco1 | ATCC26232 | 20 µg/mL
CC1(c2ccc(Cl)cc2Cl)OCC(CO/N=C(\Cn2ccnc2)c2ccccc2)O1 | - | ≤10 µg/mL
Cc1ccc(-c2c(CN)c(=O)n3[nH]c(-c4ccc(Br)cc4)nc3c2CN)o1 | - | 0.78 µg/mL
CN1O[C@H](c2ccc(Cl)cc2)CC1(Cn1ccnc1)c1ccco1 | ATCC26232 | 20 µg/mL
O=[N+]([O-])c1cn(CCc2nc(Nc3ccccc3)n[nH]2)cn1 | - | 500 µg/mL
CC1C=C(c2ccc([N+](=O)[O-])cc2)C(=O)O1 | ATCC 44859 | >125 µM
c1ccc(-c2c(C(c3ccccc3)n3cncn3)cnn2-c2ccccc2)cc1 | - | >200 µM
CC(=O)Cc1nc2ccccc2n1CC(O)(Cn1cncn1)c1ccc(F)cc1F | - | 6.25–12.5 µg/mL
c1ccc(C(c2cnn(-c3ccccc3)c2)n2ccnc2)cc1 | - | >200 µM
OC(Cn1cncn1)(Cn1c(-c2cccnc2)nc2ccccc21)c1ccc(F)cc1F | - | 100–200 µg/mL
CC(CCC(=O)NCCC[N+](C)(C)CCCS(=O)(=O)[O-])C1CCC2C3C(C[C@H](O)C12C)C1(C)CC[C@@H](O)C[C@H]1C[C@H]3O | ATCC 14053 | >500 µg/mL
Cc1ccc(/C=c2/sc3n(c2=O)C(N)=C(CN)C(c2ccc(C)o2)C=3CN)o1 | - | 100 µg/mL
CC(N1CCN(c2ccc(-n3ncnn3)cc2)C1=O)C(O)(Cn1cncn1)c1ccc(F)cc1F | TIMM1756 | 0.004 µg/mL
CC1(C)OCC(CO/N=C(\Cn2cncn2)c2ccc(Cl)cc2Cl)O1 | - | ≤10 µg/mL
OC(c1ccc(Cl)cc1)c1nccn1CC(O)(Cn1cncn1)c1ccc(F)cc1F | - | 25–50 µg/mL
c1csc(CC2=NCCS2)c1 | - | 12 µg/mL
CC1(C)OCC(CO/N=C(\Cn2ccnc2)c2ccccc2)O1 | - | >10 µg/mL
CC(n1ccn(-c2ccc(-n3ccnn3)cc2)c1=O)C(O)(Cn1cncn1)c1ccc(F)cc1F | TA | <0.008 µg/mL
CC(C)(C)c1c(C(c2ccccc2)n2cncn2)cnn1-c1ccccc1 | - | >200 µM
Oc1ccc(C(=S)n2nnnc2-c2ccc(Cl)cc2)c(O)c1 | 10 isolates | 25 µg/mL
CC(C(Sc1ccccc1C(=O)O)c1ccc(N(C)C)cc1)[N+](=O)[O-] | ATCC64550 | 15.6 µg/mL
Clc1ccc(/C(Cn2ccnc2)=N/OCC2COC(Cn3ccnc3)(c3ccc(Cl)cc3Cl)O2)c(Cl)c1 | - | ≤5 µg/mL
Cc1nc(-c2ccc(-n3ccn(C(C)C(O)(Cn4cncn4)c4ccc(F)cc4F)c3=O)cc2)co1 | TA | ≤0.001 µg/mL
Clc1ccc(/C(Cn2ccnc2)=N\Nc2c(Cl)cccc2Cl)s1 | GB | 6.2 µg/mL
Clc1ccc(/C=C\C2=NCCS2)cc1 | - | 3 µg/mL
O=C1NC(=O)[C@H](Cc2ccccc2)n2c1nc1ccccc1c2=O | SC5314 | >100 µg/mL
Cc1nc(Nc2ccc(C3=NN(c4ccccc4)C(c4ccc(Br)cc4)C3)cc2)c2c3c(sc2n1)CCCC3 | - | 105 µg/mL
N#CCC(=O)N/N=C/c1coc2ccc([N+](=O)[O-])cc2c1=O | PN-10 | 400 µg/mL
OC(Cn1cncn1)(Cn1c(-c2ccc(Cl)cc2)nc2ccccc21)c1ccc(F)cc1F | - | 6.25–12.5 µg/mL
CCc1c(C(c2ccccc2)n2ccnc2)cnn1-c1ccccc1 | - | >200 µM
CC(n1ccn(-c2ccc(-n3ncnn3)cc2)c1=O)C(O)(Cn1cncn1)c1ccc(F)cc1F | TA | 0.002 µg/mL
O=C(O)CCC(=O)OC[C@@H](NC(=O)C(Cl)Cl)[C@H](O)c1ccc([N+](=O)[O-])cc1 | - | 500 µg/mL
Cn1ncc(C(c2ccccc2)n2cncn2)c1-c1ccccc1 | - | >200 µM
COc1ccc(-c2nc3ccccc3n2CC(O)(Cn2cncn2)c2ccc(F)cc2F)cc1 | - | 50–100 µg/mL
CCC(C)n1ncn(-c2ccc(N3CCN(c4ccc(OC[C@H]5CO[C@](Cn6cncn6)(c6ccc(Cl)cc6Cl)O5)cc4)CC3)cc2)c1=O | ATCC 90018 | ≤0.0313 µg/mL
CCNC1Oc2ccc(Cl)cc2C(=O)/C1=C/Nc1ccc2nc(Sc3ccc([N+](=O)[O-])cc3[N+](=O)[O-])sc2c1 | PN-10 | 50–250 µg/mL
COc1cc(CC=C(C)C)c([C@H]2Oc3c(CC=C(C)C)c(OC)cc(O)c3C(=O)[C@@H]2O)c(CC=C(C)C)c1O | NIH B311 | >100 µg/mL
CC1(c2ccc(Cl)cc2Cl)OCC(CO/N=C(\Cn2ccnc2)c2ccc(Cl)cc2)O1 | - | ≤10 µg/mL
Cc1c(C(c2ccccc2)n2cncn2)cnn1-c1ccccc1 | - | >200 µM
O=[N+]([O-])c1cn(CCc2nc(Nc3ccc(Cl)cc3)n[nH]2)cn1 | - | 500 µg/mL
O=C(O)c1ccccc1SC(C[N+](=O)[O-])c1ccccc1 | ATCC64550 | 3.9 µg/mL
C(=C/c1ccncc1)/C1=NCCS1 | - | 12 µg/mL
CC(N1CCN(c2ccc(-n3cnnn3)cc2)C1=O)C(O)(Cn1cncn1)c1ccc(F)cc1F | TIMM1850 | 0.004 µg/mL
Cc1ccc(-c2c(CN)c(N)n(N)c(=O)c2CN)o1 | - | 1.56 µg/mL
COc1ccc(C(Sc2ccccc2C(=O)O)C(C)[N+](=O)[O-])cc1 | ATCC64550 | 15.6 µg/mL
CC1(C)C2CCC3=C(CC[C@]4(C)CCC[C@@]34C)[C@@]2(C)CC[C@@H]1O | IP 1180.79 | >250 µM
COc1ccc(OC[C@@H]2CC(Cn3ccnc3)(c3ccco3)N(C)O2)cc1 | ATCC26232 | 70 µg/mL
C[C@H](N1CCN(c2ccc(-n3cccn3)cc2)C1=O)[C@@](O)(Cn1cncn1)c1ccc(F)cc1F | TA | 0.002 µg/mL
NCCCCNCCCN | ATCC 14053 | >500 µg/mL
COc1ccc(C(C[N+](=O)[O-])Sc2ccccc2C(=O)O)cc1 | ATCC64550 | 3.9 µg/mL
CC(C)C1=CC2CC3(C=O)[C@@H]4CC[C@@H](C)[C@H]4CC2(CO[C@@H]2O[C@H](C)CN(CC4CC4)C[C@@H]2O)[C@]13C(=O)O | - | 16 µg/mL
CC(C)=CCC/C(C)=C/CC/C(C)=C/Cc1cccc(C(=O)O)c1O | ATCC 10231 | >12.5 µg/mL
CCC1C=C(c2cccc(Cl)c2)C(=O)O1 | ATCC 44859 | 62.5 µM
CN[C@@H]1[C@H](O[C@@H]2OC[C@@H](O)[C@H](O)[C@H]2O)[C@@H](O)[C@H](O[C@H]2c3cc(C)c(C(=O)NCC(=O)O)c(O)c3-c3c(cc4c(c3O)C(=O)c3cc(OC)cc(O)c3C4=O)[C@@H]2O)O[C@@H]1CO | A9540 | 6.3 µg/mL
CC1C=C(c2cc3ccccc3s2)C(=O)O1 | ATCC 44859 | >125 µM
CCCc1nc2ccccc2n1CC(O)(Cn1cncn1)c1ccc(F)cc1F | - | 25–50 µg/mL

Repeating the first 11 entries:

smiles | strain | result
CC(n1ncn(-c2ccc(-n3cncn3)cc2)c1=O)C(O)(Cn1cncn1)c1ccc(F)cc1F | TA | 0.03 µg/mL
C=CC(C)(C)c1[nH]c2ccccc2c1/C=c1\[nH]c(=O)c2n(c1=O)CCC=2 | SC5314 | >100 µg/mL
Cc1ccc2occ(/C=N/NC(=O)c3cc(O)c(O)c(O)c3)c(=O)c2c1 | PN-10 | 400 µg/mL
CC(C)c1c(C(c2ccccc2)n2ccnc2)cnn1-c1ccccc1 | - | >200 µM
Oc1ccc(C(=S)N2C=NC(c3ccccc3)C2c2ccccc2)c(O)c1 | ATCC 10231 | 50 µg/mL
Cc1nc(Nc2ccc(C3=NN(c4ccc([N+](=O)[O-])cc4[N+](=O)[O-])C(c4ccc([N+](=O)[O-])cc4)C3)cc2)c2c3c(sc2n1)CCCC3 | - | 155 µg/mL
CC(C(Sc1ccccc1C(=O)O)c1ccc([N+](=O)[O-])cc1)[N+](=O)[O-] | ATCC64550 | 15.6 µg/mL
CCCCCCCCCCCC1=NCCN1C(=S)c1ccc(O)cc1O | ATCC 10231 | 50 µg/mL
CCCCCCCCCC(O)CC(=O)CCc1ccc(O)c(OC)c1 | A1-1 | >1000 µg/mL
CCOC1Oc2ccccc2C(=O)/C1=C\Nc1ccc(C(=O)O)c(O)c1 | PN-10 | 50 µg/mL
Cc1ccc(C(Sc2ccccc2C(=O)O)C(C)[N+](=O)[O-])cc1 | ATCC64550 | 31.2 µg/mL